Results from US20230331815A1 (priority 2020, published 2023).

Tested on: VeroE6/Tmprss2 (VE6/T) cells
Test: hLF internalization into cells, immunofluorescence and western blot
Assay type: cell-based, African green monkey
Conditions: 2.5 µM

B1: hLF: human lactoferrin (LF), 711 amino acids, SEQ ID NO:4; 70-80 kDa basic protein of the transferrin family (protein, listed as Homo sapiens)
chain: MKLVFLVLLFLGALGLCLAGRRRRSVQWCAVSQPEATKCFQWQRNMRKVRGPPVSCIKRDSPIQCIQAIAENRADAVTLDGGFIYEAGLAPYKLRPVAAEVYGTERQPRTHYYAVAVVKKGGSFQLNELQGLKSCHTGLRRTAGWNVPIGTLRPFLNWTGPPEPIEAAVARFFSASCVPGADKGQFPNLCRLCAGTGENKCAFSSQEPYFSYSGAFKCLRDGAGDVAFIRESTVFEDLSDEAERDEYELLCPDNTRKPVDKFKDCHLARVPSHAVVARSVNGKEDAIWNLLRQAQEKFGKDKSPKFQLFGSPSGQKDLLFKDSAIGFSRVPPRIDSGLYLGSGYFTAIQNLRKSEEEVAARRARVVWCAVGEQELRKCNQWSGLSEGSVTCSSASTTEDCIALVLKGEADAMSLDEGYVYTAGKCGLVPVLAENYKSQQSSDPDPNCVDRPVEGYLAVAVVRRSDTSLTWNSVKGKKSCHTAVDRTAGWNIPMGLLFNQTGSCKFDEYFSQSCAPGSDPRSNLCALCIGDEQGENKCVPNSNERYYGYTGAFRCLAENAGDVAFVKDVTVLQNTDGNNNEAWAKDLKLADFALLCLDGKRKPVTEARSCHLAMAPNHAVVSRMDKVERLKQVLLHQQAKFGRNGSDCPDKFCLFQSETKNLLFNDNTECLARLHGKTTYEKYLGPQYVAGITNLKKCSTSPLLEACEFLRK
- entry, accumulation and integrity in cells (western blot of cell lysate) (10 µM and 50 µM for 0.5, 2, 6 and 24 hours): enters, accumulates, and remains intact in cells for up to the 24 hours tested
- cell entry (immunofluorescence) (10 µM and 50 µM for 24 hrs): enters the cells
